Experimental data from PubChem BioAssay AID504582 (Broad Institute, 2011).
This is a selection; strong and weak results do not stand in their true shares. Some salts or complexes appear as unconnected parts, following the source record. Activity calls are given as the source filed them. Rule as the data show it: active = growth rescue above about 28% (passing the limit was not always enough); inconclusive = no clear call, values can overlap the other calls.

Experiment: rescue of yeast from PfHsp40 toxicity, primary screen, S. cerevisiae, ATP luminescence (AID 504582);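 also: yeast W303a lacking pdr1 and pdr3 grown in galactose medium; growth measured after three days at 30 °C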
Conditions: S. cerevisiae expressing PfHsp40, growth rescue, at 12.5 µM, hits give high values

| SMILES | growth rescue |
| --- | --- |
| COc1ccccc1OP(C)(=O)Nc1cc(Cl)ccc1C (centres undefined) | inactive: -0.852% |
| COc1ccc(OP(C)(=O)Nc2cccc(F)c2)cc1 (centres undefined) | inactive: 1.42% |
| Cc1cc(C)cc(OP(C)(N)=O)c1 (centres undefined) | inactive: -0.028% |
| CCOC(=O)c1ccc(NP(C)(=O)Oc2ccccc2)cc1 (centres undefined) | inactive: 0.0695% |
| COc1ccccc1OP(C)(=O)Nc1ccc(C)cc1 (centres undefined) | inactive: 0.258% |
| Cc1ccc(NP(C)(=O)Oc2ccccc2)c(C)c1 (centres undefined) | inactive: 21.4% |
| CC(C)(C)c1ccc(OP(C)(=O)Nc2ccc(SC(F)(F)F)cc2)cc1 (centres undefined) | active: 35% |
| Cc1cccc(C)c1OP(C)(N)=O (centres undefined) | inactive: -0.057% |
| O=[N+]([O-])c1ccc2c(c1)C=Nc1ccccc1O2 | inactive: 0.292% |
| O=[N+]([O-])c1cc([N+](=O)[O-])c(Nc2cccnc2)c([N+](=O)[O-])c1 | inactive: -2.01% |
| COc1cc(C(=O)NCC2(N3CCOCC3)CCCCC2)ccc1OCC(C)C | inactive: -0.781% |
| CCN(CC)CCCOC(=O)C(O)(c1ccccc1)c1ccccc1 | inactive: 0.0395% |
| CP(=O)(Nc1ccccn1)Oc1ccc(Cl)cc1 (centres undefined) | inactive: -1.54% |
| CCOP(C)(=S)SCC(=O)NC(C)C(=O)O (centres undefined) | inactive: 1.19% |
| CCOC(=O)c1ccc(NP(C)(=O)Oc2ccc(OC)cc2)cc1 (centres undefined) | inactive: 0.995% |
| CCc1ccc(OP(C)(=O)N2CCN(c3ccc([N+](=O)[O-])cc3)CC2)cc1 (centres undefined) | inactive: 6.6% |
| CP(=O)(NC(=O)Nc1ccccc1)Oc1ccccc1 (centres undefined) | inactive: -0.712% |
| Cc1cc(C)cc(OP(C)(=O)Nc2ccc(SC(F)(F)F)cc2)c1 (centres undefined) | inactive: 0.772% |
| CC(=O)OCC12CC(OC(=O)CC(C)C)C(C)=CC1OC1C(O)C(OC(C)=O)C2(C)C12CO2 (centres undefined) | inactive: 18.2% |
| Cc1cccc(C)c1OP(C)(=O)Nc1ccc(SC(F)(F)F)cc1 (centres undefined) | inactive: -0.671% |
| CP(=O)(Oc1ccccc1)OC(c1ccccc1)C(F)(F)F (centres undefined) | inactive: 0.862% |
| COc1ccccc1OP(C)(=O)Nc1ccccc1 (centres undefined) | inactive: -0.341% |
| CP(=O)(Nc1ccccc1Br)Oc1ccccc1 (centres undefined) | inactive: -0.147% |
| CP(=S)(Nn1cnnc1)Oc1ccccc1 (centres undefined) | inactive: -0.321% |
| CCCCOc1ccc(C(=O)NCC2(N3CCCCC3)CCCCC2)cc1OC | inactive: -0.702% |
| CP(=O)(Nc1ccc(SC(F)(F)F)cc1)Oc1ccccc1 (centres undefined) | inactive: 3.03% |
| CCCOc1ccc(NP(C)(=O)Oc2ccc(Cl)cc2)cc1 (centres undefined) | inactive: 3.66% |

| SMILES | growth rescue |
| --- | --- |
| COc1ccccc1OP(C)(=O)Nc1c(C)cccc1C (centres undefined) | inactive: 0.006% |
| CN1CCCCC1COC(=O)C1(O)c2ccccc2CCc2ccccc21 (centres undefined) | inactive: 2.06% |
| O=[N+]([O-])c1cc([N+](=O)[O-])c(Nc2nnnn2CCO)c([N+](=O)[O-])c1 | inactive: 0.409% |
| CN(C)C1(CNC(=O)c2ccc(S(C)(=O)=O)cc2)CCCCC1 | inactive: 0.317% |
| CC1=C2N=C(C=C3N=C(C(C)=C4[N-][C@@](C)([C@@H]5N=C1[C@](C)(CCC(=O)NC[C@@H](C)OP(=O)([O-])O[C@H]1[C@@H](O)[C@@H](n6cnc7cc(C)c(C)cc76)O[C@@H]1CO)[C@H]5CC(N)=O)[C@@](C)(CC(N)=O)[C@@H]4CCC(N)=O)[C@@](C)(CC(N)=O)[C@@H]3CCC(N)=O)C(C)(C)[C@@H]2CCC(N)=O.[C-]#N.[Co+3] | inactive: -0.271% |
| CCOC(=O)C(CC)C1=NC(C)(C)Cc2ccccc21.O=[N+]([O-])c1cc([N+](=O)[O-])c(O)c([N+](=O)[O-])c1 (centres undefined) | inactive: 0.791% |
| CC1CCOC(=O)C=CC=CC(=O)OC2CC3OC4C5OC5(C)CCC4(COC(=O)C1O)C2(C)C31CO1 (centres undefined) | active: 102% |
| Cc1nc2ccc3ccccc3c2s1.O=[N+]([O-])c1cc([N+](=O)[O-])c(O)c([N+](=O)[O-])c1 | inactive: -2.72% |
| O=[N+]([O-])c1cc([N+](=O)[O-])c(-c2cnn(-c3ccccc3)c2)c([N+](=O)[O-])c1 | active: 110% |
| O=[N+]([O-])c1cc([N+](=O)[O-])c(-n2nnc3ccccc32)c([N+](=O)[O-])c1 | inactive: -0.815% |
| CP(=O)(Nc1cccc(Br)c1)Oc1ccccc1 (centres undefined) | inactive: -0.783% |
| Cc1cc(C)cc(OP(C)(=O)Nc2ccccn2)c1 (centres undefined) | inactive: 0.269% |
| Cc1ccc(C)c(NP(C)(=O)Oc2ccccc2)c1 (centres undefined) | inactive: -1.28% |
| Cc1cc(C)cc(OP(C)(=O)Nc2ccc(C)cc2C)c1 (centres undefined) | inactive: -0.656% |
| CCOC(=O)c1ccc(NP(C)(=O)Oc2cc(C)cc(C)c2)cc1 (centres undefined) | inactive: 0.822% |
| COc1cc(C(=O)NCC2(N3CCOCC3)CCCCC2)cc(Cl)c1OC(C)C | inactive: 0.651% |
| COc1ccccc1OP(C)(=O)Nc1cccc(Br)c1 (centres undefined) | inactive: -0.478% |
| CC1=NCCc2c1[nH]c1ccccc21.O=[N+]([O-])c1cc([N+](=O)[O-])c(O)c([N+](=O)[O-])c1 | inactive: 0.219% |
| O=C(O)c1cccc(Nc2c([N+](=O)[O-])cc([N+](=O)[O-])cc2[N+](=O)[O-])c1 | inactive: 0.816% |
| O=[N+]([O-])c1cc([N+](=O)[O-])c(OC2CCCCC2O)c([N+](=O)[O-])c1 (centres undefined) | inactive: -0.536% |
| CCCCCOc1ccc(NP(C)(=O)Oc2ccc(Cl)cc2Cl)cc1 (centres undefined) | inactive: -0.16% |
| CP(=O)(Nc1ccccc1)Oc1ccc(F)cc1 (centres undefined) | inactive: -1.28% |
| CCN(CC)CCCOC(=O)C(O)(c1ccccc1)C1CCCCC1 (centres undefined) | inactive: -1.12% |
| Cc1c([N+](=O)[O-])cc([N+](=O)[O-])c(Br)c1[N+](=O)[O-] | inactive: -0.459% |
| COc1ccc(OP(C)(=O)Nc2ccc(SC(F)(F)F)cc2)cc1 (centres undefined) | inactive: -0.427% |
| CCOC(=O)c1ccc(NP(C)(=O)Oc2ccc(F)cc2)cc1 (centres undefined) | inactive: -0.0685% |
| COc1ccc2c(c1O)-c1c(O)c(OC)cc3c1[C@H](C2)[N+](C)(C)CC3.O=[N+]([O-])c1cc([N+](=O)[O-])c([O-])c([N+](=O)[O-])c1[O-] | inactive: -1.15% |
